Assay results: paper PMC3172200 (2011)

Assays:
[1] = tested on: induction of IL2 and IFN-γ mRNA by SEA; test: Induction of IL2 and IFN-γ mRNA in PBMC by SEA; details: 0.1 µg/ml peptide
[2] = tested on: IL2 and IFN-γ mRNA induction by TSST-1; test: Induction of IL2 and IFN-γ mRNA in PBMC by TSST-1; details: 10 µg/ml peptide
[3] = tested on: binding of SEB to cell-surface CD28; test: Binding of SEB to cell-surface CD28 (transfected 293-T cells, western blot); details: 293-T cells transfected with CD28; 10 µg/ml peptide 1 h, then 15 µg/ml wt SEB 1 h; western blot with αSEB; three independent experiments

CC(C)C[C@H](NC(=O)[C@H](Cc1c[nH]cn1)NC(=O)[C@H](CCCCN)NC(=O)CNC(=O)[C@H](CCCCN)NC(=O)[C@@H](NC(=O)[C@H](Cc1c[nH]cn1)NC(=O)[C@@H](C)N)C(C)C)C(=O)N[C@@H](CS)C(=O)N1CCC[C@H]1C(=O)N[C@H](C)C(=O)O
Inhibition of IL2 and IFN-γ mRNA induction by SEA [1]: as sensitive as SEB | Inhibition of IL2 and IFN-γ mRNA induction by TSST-1 [2]: inhibited | Block of binding of SEB to cells expressing CD28 [3]: block binding
